# Experimental data published in PMC8828479, “Broadly neutralizing antibodies target a haemagglutinin anchor epitope” (Nature, 2021).
# B1: 222-1C06 Fab (Fab, V domains shown)
# VH: EVQLVESGGDLVQPGGSLRLSCVVSGFTFSTYSMNWVRQAPGKGLEWVSYISSSSLSRYYADSVKGRFTISRDNAKNSLSLQLNSLRAEDTAVYYCVRGSITWPTEYYLDYWGQGTLVTVSS
# VL: EIVMTQSPATLSVSPGERATLSCRASQTIRSDLAWYQQKPGQPPRLIIYGASTRATGIPARFSGSGSGTEFTLTISSLQSEDSAVYFCQQYNNWPPLTFGGGTKVEIK
# Target: H2 HA (A/Singapore/1/1957) (Influenza A virus A/Singapore/1/1957 …, UniProt Q67333)
# Assay: negative-stain EM; […] 2D class averages and 3D reconstructions
# Conditions: both partners purified
binder,measurement,value
B1,binding result,binds
